Laboratory results published in US7491489B2 (priority 2004, dated 2009).

The compounds below were run on SARS-CoV GZ50 strain (assay: Peptide-mediated protection from cytopathic effects (CPE) of SARS-CoV infection in FRhK-4 cells).

| Compound | Antiviral activity (overall statement) |
| --- | --- |
| CC[C@H](C)[C@H](NC(=O)CNC(=O)[C@H](CC(C)C)NC(=O)[C@@H]1CCCN1C(=O)[C@H](CC(C)C)NC(=O)[C@H](CCCCN)NC(=O)[C@@H](N)Cc1ccccc1)C(=O)N[C@@H](CC(N)=O)C(=O)N[C@H](C(=O)N[C@H](C(=O)N[C@@H](CC(N)=O)C(=O)N[C@@H](Cc1ccccc1)C(=O)N[C@@H](CCCNC(=N)N)C(=O)N[C@@H](C)C(=O)N[C@H](C(=O)N[C@@H](CC(C)C)C(=O)N[C@H](C(=O)N[C@@H](C)C(=O)N[C@@H](Cc1ccccc1)C(=O)N[C@@H](CO)C(=O)O)[C@@H](C)O)[C@@H](C)CC)[C@@H](C)O)[C@@H](C)CC [P1] | no antiviral activities |
| CC[C@H](C)[C@H](NC(=O)[C@H](CCC(=O)O)NC(=O)[C@H](CO)NC(=O)[C@@H](NC(=O)[C@H](CCCCN)NC(=O)[C@@H]1CCCN1C(=O)[C@H](CC(=O)O)NC(=O)[C@H](CCCNC(=N)N)NC(=O)[C@@H](NC(=O)[C@H](CO)NC(=O)[C@H](CC(=O)O)NC(=O)[C@@H](NC(=O)[C@H](Cc1ccccc1)NC(=O)[C@H](CC(=O)O)NC(=O)[C@H](CO)NC(=O)[C@@H](NC(=O)[C@H](CC(=O)O)NC(=O)[C@@H](N)CCCNC(=N)N)C(C)C)[C@@H](C)O)C(C)C)[C@@H](C)O)C(=O)N[C@@H](CC(C)C)C(=O)N[C@@H](CC(=O)O)C(=O)O [P5] | no antiviral activities |
| CC[C@H](C)[C@H](NC(=O)[C@H](C)NC(=O)[C@@H](NC(=O)[C@H](CO)NC(=O)[C@@H](NC(=O)[C@H](CC(=O)O)NC(=O)[C@@H](NC(=O)[C@H](CS)NC(=O)[C@H](CC(N)=O)NC(=O)[C@@H](NC(=O)[C@H](CC(=O)O)NC(=O)[C@H](CCC(N)=O)NC(=O)[C@@H](N)Cc1ccc(O)cc1)C(C)C)[C@@H](C)O)C(C)C)[C@@H](C)O)C(=O)N[C@@H](Cc1c[nH]cn1)C(=O)N[C@@H](C)C(=O)N[C@@H](CC(=O)O)C(=O)N[C@@H](CCC(N)=O)C(=O)N[C@@H](CC(C)C)C(=O)N[C@H](C(=O)N1CCC[C@H]1C(=O)O)[C@@H](C)O [P6] | Significant antiviral effects |
| CC[C@H](C)[C@H](NC(=O)[C@H](CO)NC(=O)[C@H](Cc1ccccc1)NC(=O)[C@H](CC(N)=O)NC(=O)[C@@H](NC(=O)[C@@H]1CCCN1C(=O)[C@@H](NC(=O)[C@H](C)NC(=O)[C@@H](NC(=O)[C@@H](NC(=O)[C@H](CC(N)=O)NC(=O)[C@H](CC(N)=O)NC(=O)[C@@H](N)CO)[C@@H](C)O)[C@@H](C)CC)[C@@H](C)CC)[C@@H](C)O)C(=O)N[C@@H](CO)C(=O)N[C@H](C(=O)N[C@H](C(=O)N[C@H](C(=O)N[C@@H](CCC(=O)O)C(=O)N[C@H](C(=O)N[C@@H](CCSC)C(=O)O)C(C)C)[C@@H](C)O)[C@@H](C)O)[C@@H](C)CC [P7] | no antiviral activities |
| CC[C@H](C)[C@H](NC(=O)CN)C(=O)NCC(=O)N[C@H](C(=O)N[C@H](C(=O)N[C@@H](CCC(N)=O)C(=O)N[C@@H](CC(N)=O)C(=O)N[C@H](C(=O)N[C@@H](CC(C)C)C(=O)N[C@@H](Cc1ccc(O)cc1)C(=O)N[C@@H](CCC(=O)O)C(=O)N[C@@H](CC(N)=O)C(=O)N[C@@H](CCC(N)=O)C(=O)N[C@@H](CCCCN)C(=O)N[C@@H](CCC(N)=O)C(=O)N[C@H](C(=O)N[C@@H](C)C(=O)N[C@@H](CC(N)=O)C(=O)N[C@@H](CCC(N)=O)C(=O)N[C@@H](Cc1ccccc1)C(=O)O)[C@@H](C)CC)C(C)C)[C@@H](C)O)C(C)C [P9] | no antiviral activities |
